# Data published in PubChem BioAssay AID720542 (National Center for Advancing Translational Sciences (NCATS), 2013).
# The entries are a selection whose mix differs from that of the whole data set. Some salts and complexes are drawn in separate pieces, as the source files them; their charges need not balance. Active and inactive are the calls of the source. Calls follow the shape of the dose curve; as a rule, active = well fitted inhibition curve with a large enough effect; inconclusive = small, poorly fitted or top-dose-only effect; inactive = no such curve, though single readings can be large or run the other way.
# System: Plasmodium falciparum AMA1 (3D7) - RON2 peptide interaction
# Assay: qHTS for Inhibitors of AMA1-RON; Towards Development of Antimalarial Drug Lead: Primary Screen;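 also: 0% = vehicle wells and -100% = peptide control; nearly all actives have a fitted effect of over 45% in size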
# Conditions: AlphaScreen AMA1-biotinylated RON2 peptide binding; at 58.2 µM (top of the series) unless noted
row,Compound,"activity change, negative = inhibition"
1,CCOC(=O)N1CCC(Nc2cccc(C)c2)CC1,inactive: -7.53%
2,O=c1[nH]c2ccccc2n1C1CCN(C(c2cccc3ccccc23)c2nnnn2C2CCCC2)CC1 (centres undefined),inactive: -13.8%
3,COc1ccc(C(=O)NCC2(N3CCCCC3)CCCCC2)cc1,inactive: 1.93%
4,CCC(c1nnnn1C1CCCC1)N1CCC(n2c(=O)[nH]c3ccccc32)CC1 (centres undefined),inactive: -17.3%
5,COc1ccc(C(=O)NCC2(N3CCCCC3)CCCCC2)c(OC)c1OC,inactive: -18.8%
6,CC(C)(C)OC(=O)N1CCC(N(C(=O)c2ccccc2)c2ccc(F)cc2)CC1,inactive: 44.2%
7,O=C(NCC1(N2CCCCC2)CCCCC1)c1ccc(=O)[nH]c1,inactive: 14.4%
8,CCCCn1nnnc1C(c1cccs1)N1CCC(n2c(=O)[nH]c3ccccc32)CC1 (centres undefined),inactive: 7.11%
9,CCCCn1nnnc1C(CC)N1CCC(n2c(=O)[nH]c3ccccc32)CC1 (centres undefined),inactive: 3.47%
10,O=C(NCC1(N2CCCCC2)CCCCC1)c1cccs1,inactive: 23.2%
11,CSc1ccccc1C(=O)NCC1(N2CCCCC2)CCCCC1,inactive: -2.44%
12,Cc1cccc(NC2(C#N)CCN(Cc3ccccc3)CC2)c1,inactive: 0.0794%
13,O=c1[nH]c2ccccc2n1C1CCN(C(c2ccccc2OC(F)(F)F)c2nnnn2C2CCCCC2)CC1 (centres undefined),inactive: -3.76%
14,O=C(NCC1(N2CCCCC2)CCCCC1)c1ccc(Cl)nc1,inactive: 4.89%
15,Cc1cc(C)cc(N(C(=O)c2ccccc2)C2CCN(C(=O)OC(C)(C)C)CC2)c1,inactive: -4.24%
16,O=C(NCC1(N2CCOCC2)CCCCC1)c1cc2ccccc2o1,inactive: 5.15%
17,O=C(OC1CN2CCC1CC2)C1c2ccccc2Oc2ccccc21 (centres undefined),inactive: -1%
18,O=c1[nH]c2ccccc2n1C1CCN(C(c2cc3ccccc3o2)c2nnnn2C2CCCCC2)CC1 (centres undefined),inactive: -0.296%
19,O=C(NCC1(N2CCCCC2)CCCCC1)c1ccc(Cl)s1,inactive: 10.6% [at 11.6 µM]
20,N#CC1(Nc2ccccc2)CCN(Cc2ccccc2)CC1,inactive: 11.1%
21,COc1ccc(Cl)cc1C(=O)NCC1(N2CCOCC2)CCCCC1,inactive: -12.3%
22,CCOC(=O)N1CCC(Nc2ccc(OC)cc2)CC1,inactive: -8.87%
23,CCCCn1nnnc1C(c1ccc(OC)cc1)N1CCC(n2c(=O)[nH]c3ccccc32)CC1 (centres undefined),inactive: -9.36%
24,CCCCn1nnnc1C(c1ccccc1OC(F)(F)F)N1CCC(n2c(=O)[nH]c3ccccc32)CC1 (centres undefined),inactive: -4.61%
25,COc1ccc(CN(CCCl)CCCl)cc1Cl,inactive: -23.5%
26,O=[N+]([O-])c1cc([N+](=O)[O-])c(OC2CCCCC2O)c([N+](=O)[O-])c1 (centres undefined),inactive: 0%
27,CN(C)c1cccc(C(=O)NCC2(N3CCCCC3)CCCCC2)c1,inactive: 7.64%

row,Compound,"activity change, negative = inhibition"
1,COc1cc(OC)c(C(=O)NCC2(N(C)C)CCCCC2)cc1OC,inactive: -3.45%
2,CCC(c1nnnn1C(C)(C)C)N1CCC(n2c(=O)[nH]c3ccccc32)CC1 (centres undefined),inactive: -5.75%
3,O=C(NCC1(N2CCOCC2)CCCCC1)c1cc(F)c(F)cc1Cl,inactive: -4.79%
4,CCN(CC)CCCNc1ccccc1[N+](=O)[O-].O=[N+]([O-])c1cc([N+](=O)[O-])c(O)c([N+](=O)[O-])c1,inactive: -9.62%
5,CCCCn1nnnc1C(c1ccnc2ccccc12)N1CCC(n2c(=O)[nH]c3ccccc32)CC1 (centres undefined),inactive: -6.72%
6,O=C(OC1CN2CCC1CC2)c1ccc([N+](=O)[O-])cc1 (centres undefined),inactive: -7.43%
7,O=C(NCC1(N2CCCCC2)CCCCC1)c1cncc(Br)c1,inactive: 0.847%
8,COc1ccc2c(c1O)-c1c(O)c(OC)cc3c1[C@H](C2)[N+](C)(C)CC3.O=[N+]([O-])c1cc([N+](=O)[O-])c([O-])c([N+](=O)[O-])c1[O-],inactive: -15.9%
9,CN1CCC(Nc2cccc(F)c2)CC1,inactive: 8.49%
10,COc1ccc(C(c2nnnn2C2CCCC2)N2CCC(n3c(=O)[nH]c4ccccc43)CC2)cc1 (centres undefined),inactive: -19.3%
11,Cc1ccc(C(=O)NCC2(N(C)C)CCCCC2)o1,inactive: 0%
12,CCCOc1ccc(C(=O)NCC2(N(C)C)CCCCC2)cc1OC,inactive: -2.3%
13,CC(C)(C)n1nnnc1C(c1ccccc1OC(F)(F)F)N1CCC(n2c(=O)[nH]c3ccccc32)CC1 (centres undefined),inactive: -0.181%
14,O=C(NCC1(N2CCCCC2)CCCCC1)c1ccc(OC(F)F)cc1,inactive: 11%
15,CCN1CCC(Nc2ccc(Cl)cc2)CC1,inactive: -8.9%
16,N#CC1(Nc2ccccc2)CCN(CCc2ccccc2)CC1,inactive: 14.8%
17,O=c1[nH]c2ccccc2n1C1CCN(C(c2ccccc2OC(F)(F)F)c2nnnn2C2CCCC2)CC1 (centres undefined),inactive: 15.5%
18,O=C(NCC1(N2CCCCC2)CCCCC1)c1cccc([N+](=O)[O-])c1,inactive: 4.03%
19,CSc1ccc(C(=O)NCC2(N3CCOCC3)CCCCC2)cc1,inactive: -10.9%
20,O=[N+]([O-])c1cc([N+](=O)[O-])c(NCC2CCS(=O)(=O)C2)c([N+](=O)[O-])c1 (centres undefined),inactive: 9.84%
21,O=C(NCC1(N2CCCCC2)CCCCC1)c1cccc(C(F)(F)F)c1,inactive: 5.85%
22,COc1cc(C(=O)NCC2(N3CCCCC3)CCCCC2)ccc1OC(F)F,inactive: 17.6%
23,O=C(NCC1(N2CCOCC2)CCCCC1)c1cc(=O)[nH]c2ccccc12,inactive: -0.527%
24,CCCCn1nnnc1C(c1cccc2ccccc12)N1CCC(n2c(=O)[nH]c3ccccc32)CC1 (centres undefined),inactive: -20.2%
25,CN1CCN(CCOC(=O)C(O)(c2ccccc2)c2ccccc2)CC1,inactive: -1.58%
26,COc1ccc(NC2CCN(C(=O)OC(C)(C)C)CC2)cc1,inactive: -14.5%
27,CC(C)c1ccc(C(=O)NCC2(N3CCOCC3)CCCCC2)cc1,inactive: -1.69%
